Assays:
[1] = test system: Plasmodium berghei; experiment: Antimalarial activity as reduced parasitaemia at day 3 against Plasmodium berghei infected MORO mice (Mus musculus) at 100 mg/kg subcutaneous dose; assay type: functional; parameters: scale not given: the % may be the effect or the level left
[2] = test system: Plasmodium berghei; experiment: Antimalarial activity as reduced parasitaemia at day 3 against Plasmodium berghei infected MORO mice (Mus musculus) at 100 mg/kg peroral dose; assay type: functional; parameters: scale not given: the % may be the effect or the level left

SMILES	Activity [1] [%]	Activity [2] [%]
C1CCC2(C1)OOC1(CCCC1)OO2	84	35
C1CC2(CCO1)OOC1(CCOCC1)OO2	0	22
